Measured values from several laboratories, pooled; numbers as filed in NIAID ChemDB.

Shared fields: growth or infection tests; species: Mycobacterium avium

ECn: concentration that inhibits the pathogen or its effect by n%.

structure,method,strain,setting,endpoint,value
CC(O)c1cn([C@H]2C[C@H](O)[C@@H](CO)O2)c(=O)[nH]c1=O,-,ATCC 25291,-,EC50,<5 µg/mL
O=C(NNC(=O)c1ccncc1)Nc1ccc(Cl)c(C(F)(F)F)c1,broth dilution,MY330/88,21 d,MIC100,125 µM
Cc1cccc(C(N)=Nc2nc(-c3ccccn3)cc3ccccc23)c1,-,101,-,MIC,1 µg/mL
O=c1[nH]c(=O)n([C@H]2C=C[C@@H](CO)O2)cc1I,-,ATCC 25291,-,EC50,>50 µg/mL
CCOc1c(N2CCC(C(C)(C)N)C2)c(F)cc2c(=O)c(C(=O)O)cn(C3CC3)c12,-,101,-,MIC,1 µg/mL
CCCCCCCNC(=O)NNC(=O)c1ccncc1,broth dilution,MY330/88,14 d,MIC100,32 µM
Fc1cccc(CSc2ncn[nH]2)c1,-,MY330/88,-,MIC,500 µM
CCCCCOc1ccc(NC(=O)OCCN2CCOCC2)cc1,-,MY330/88,-,MIC,62.5 µM
CCCCCCc1ccc(NC(=O)NNC(=O)c2ccncc2)cc1,broth dilution,MY330/88,21 d,MIC100,62.5 µM
Clc1ccc(CSc2ncn[nH]2)cc1Cl,-,MY330/88,-,MIC,1000 µM
Cc1ccc(-n2c(=O)oc3ccc(Cl)cc3c2=O)cc1,-,CNCTC MY330/88,-,MIC,8 µM
Cc1ccc2nc(SCc3cccc(C(F)(F)F)c3)[nH]c2c1,-,MY330/88,-,MIC,32 µM
Fc1ccccc1CSc1ncn[nH]1,-,MY330/88,-,MIC,500 µM
CCCCCCCCCOc1ccccc1NC(=O)OCCN(C)C,-,MY330/88,-,MIC,8 µM
CO[C@H]1O[C@@H](n2ccc(=O)[nH]c2=O)C[C@@H]1N=[N+]=[N-],-,ATCC 25291,-,EC50,>50 µg/mL
CCCCOc1cccc(NC(=O)OCCN2CCOCC2)c1,-,MY330/88,-,MIC,125 µM
CC(C)(C)n1cc(C(=O)O)c(=O)c2cc(F)c(N3CCNCC3)nc21,-,SMT,-,MIC,2 µg/mL
Cc1ccc2nc(SCc3cc(C(F)(F)F)cc(C(F)(F)F)c3)[nH]c2c1,-,MY330/88,-,MIC,62 µM
Cc1ccc2oc(=O)n(-c3ccc(Cl)c(Cl)c3)c(=O)c2c1,-,CNCTC MY330/88,-,MIC,8 µM
N#Cc1ccc(CSc2ncn[nH]2)cc1,-,MY330/88,-,MIC,500 µM
O=C(NNC(=O)c1ccncc1)Nc1c(Cl)cc(Cl)cc1Cl,broth dilution,MY330/88,21 d,MIC100,>125 µM
O=c1oc2cc(Cl)ccc2c(=O)n1-c1cccc(F)c1,-,CNCTC MY330/88,-,MIC,16 µM
Cc1ccc2nc(SCc3ccccc3)[nH]c2c1,-,MY330/88,-,MIC,62 µM
NNC(=O)c1ccncc1,-,3337-4,-,MIC,1.25 µg/mL
COc1ccc(CSc2ncn[nH]2)cc1,-,MY330/88,-,MIC,500 µM
Cc1ccc2[nH]c(=S)[nH]c2c1,-,MY330/88,-,MIC,>500 µM
CCCCCOc1cccc(NC(=O)OCCN(C)C)c1,-,MY330/88,-,MIC,62.5 µM
CC(C)N=c1cc2n(-c3ccc(Cl)cc3)c3ccccc3nc-2cc1Nc1ccc(Cl)cc1,-,8775,-,MIC,5 µg/mL
O=c1[nH]c(=O)n([C@H]2C[C@H](O)[C@@H](CO)O2)cc1CCO,-,ATCC 25291,-,EC50,>50 µg/mL
CCCCCCCCCOc1cccc(NC(=O)OCCN(C)C)c1,-,MY330/88,-,MIC,16 µM
O=c1oc2ccc(Cl)cc2c(=O)n1-c1ccc(Br)cc1,-,CNCTC MY330/88,-,MIC,4 µM
CCCCCCCOc1cccc(NC(=O)OCCN(C)C)c1,-,MY330/88,-,MIC,8 µM
Cc1ccc(NC(=O)NNC(=O)c2ccncc2)cc1,broth dilution,MY330/88,21 d,MIC100,32 µM

The last 2 rows once more:

| structure | method | strain | setting | endpoint | value |
|---|---|---|---|---|---|
| CCCCCCCOc1cccc(NC(=O)OCCN(C)C)c1 | - | MY330/88 | - | MIC | 8 µM |
| Cc1ccc(NC(=O)NNC(=O)c2ccncc2)cc1 | broth dilution | MY330/88 | 21 d | MIC100 | 32 µM |

Conditions beyond the fields shown may differ between rows. Blank or dashed fields: not listed here. MIC50, MIC90 and the like: level of inhibition, or share of isolates inhibited.